The list shows a part of the results, in another mix than the full data. The source made the active and inactive calls.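 How the source made its calls: active means inhibition above the campaign mean inhibition over all tested compounds plus 3 SD (cut at about 28% in these data); inactive means the rest.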

The assay has as its system M18 aspartyl aminopeptidase (Plasmodium falciparum 3D7). Briefly: PfM18AAP inhibitors, malaria aminopeptidase, primary screen, biochemical, QFRET, recombinant enzyme (AID 1822).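 Further: 0% = plate median of test compound wells and 100% = 2 mM ZnCl2.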 The following applies: H-Glu-NHMec fluorogenic cleavage, at 7.35 µM, active compounds read high.
One may read the inhibition as the change of the read-out against control, counted positive when it falls. On to `CP(=O)(OC12CC3CC(CC(C3)C1)C2)OC12CC3CC(CC(C3)C1)C2`, for which the inhibition is inactive: -1.26%.
Regarding `CCOC(=O)c1ccc(NP(C)(=O)Oc2ccc(Cl)cc2)cc1` (stereo not drawn), the inhibition is inactive: -2.57%.
On to `CP(=O)(Oc1ccccc1)N1CCOC1=O` (stereo not drawn), for which the inhibition was inactive: -8.72%.
As to `CCc1ccc(OP(C)(=O)Nc2cccnc2)cc1` (stereo not drawn), the inhibition was inactive: -8.1%.
As to `COc1ccccc1OP(C)(=O)Nc1c(C)n(C)n(-c2ccccc2)c1=O` (stereo not drawn), the inhibition was inactive: -17.7%.
The result for `O=C(OCCCN1CCCC1)C(O)(c1ccccc1)C1CCCCC1` (stereo not drawn) reads inactive: -6.87%; that for `CCN(CC)CC(O)COC(=O)C(O)(c1ccccc1)C1CCCCC1` (stereo not drawn), inactive: 3.1%; that for `COc1ccc(OP(C)(=O)Nc2ccc(Br)cc2)cc1` (stereo not drawn), inactive: -12.4%.
The result for `CN(C)C(=O)c1c([N+](=O)[O-])cc([N+](=O)[O-])cc1[N+](=O)[O-]` reads active: 29%.
For `CP(=O)(Nc1ccc(Cl)cc1)Oc1ccc(F)cc1` (stereo not drawn), the inhibition is inactive: -0.86%.
Consider `CC(C)(C)c1ccc(OP(C)(=O)O)cc1`, for which the inhibition is inactive: 5.38%.
The result for `COc1ccccc1OP(C)(=O)Nc1ccccc1Br` (stereo not drawn) reads inactive: -3.58%.
With `CN(C)CCOC(=O)C(O)(c1ccccc1)C1CCCC1` (stereo not drawn) the figure was inactive: -8.85%; with `COc1ccc(OP(C)(=O)Nc2ccccn2)cc1` (stereo not drawn), inactive: 1.22%.
With `COc1ccccc1OP(C)(=O)Nc1ccc(Br)cc1` (stereo not drawn) the figure was inactive: -12.8%; with `CCc1ccc(OP(C)(=O)O)cc1`, inactive: 1.24%.
For `CP(=O)(Nc1ccccn1)Oc1ccccc1` (stereo not drawn), the inhibition is inactive: 1.43%.
For the compound `COc1ccccc1OP(C)(=O)Nc1ccc(C)cc1C` (stereo not drawn), the inhibition was inactive: -10.7%.
With `O=[N+]([O-])c1cc([N+](=O)[O-])c(Nc2ccccn2)c([N+](=O)[O-])c1` the figure was inactive: -1.13%; with `Cc1c(NP(C)(=O)Oc2ccc(C(C)C)cc2)c(=O)n(-c2ccccc2)n1C` (stereo not drawn), inactive: 4.01%; with `COc1ccc(OP(C)(=O)Nc2ccccc2Br)cc1` (stereo not drawn), inactive: -3%.
With `COc1ccccc1OP(C)(=O)Nc1ccc(C)c(C)c1` (stereo not drawn), the inhibition was inactive: -2.37%.
Consider `Cc1cc(C)cc(OP(C)(=O)Nc2cccc(C(F)(F)F)c2)c1` (stereo not drawn), for which the inhibition was inactive: 1.23%.
Consider `CP(=O)(OCCOc1ccccc1)OCCOc1ccccc1`, for which the inhibition was inactive: -2.5%.
With `Cc1nc2ccc3ccccc3c2o1.O=[N+]([O-])c1cc([N+](=O)[O-])c(O)c([N+](=O)[O-])c1` the figure was active: 32.6%; with `COc1ccc(OP(C)(=O)Nc2ccc(SC(F)(F)F)cc2)cc1` (stereo not drawn), inactive: 2.04%; with `CCOC(=O)c1ccc(NP(C)(=O)Oc2ccc(F)cc2)cc1` (stereo not drawn), inactive: -11.2%.
With `O=[N+]([O-])c1cc([N+](=O)[O-])c(OC2CCCCC2O)c([N+](=O)[O-])c1` (stereo not drawn) the figure was inactive: 5.74%; with `CCCCCOc1ccc(NP(C)(=O)Oc2ccc(Cl)cc2Cl)cc1` (stereo not drawn), inactive: -10%.
The result for `CP(=O)(Nc1ccccc1)Oc1ccc(F)cc1` (stereo not drawn) reads inactive: -0.98%.
As to `CCN(CC)CCCOC(=O)C(O)(c1ccccc1)C1CCCCC1` (stereo not drawn), the inhibition is inactive: -5.09%.
For the compound `CC(C)c1ccc(OP(C)(=O)Nc2ccc(SC(F)(F)F)cc2)cc1` (stereo not drawn), the inhibition is inactive: 1.48%.
As for `CP(=O)(Nc1ccccc1F)Oc1ccccc1` (stereo not drawn), the inhibition was inactive: 11.1%.
The result for `O=C(OCCN1CCN(CCOCc2ccccc2)CC1)C(O)(c1ccccc1)c1ccccc1` reads inactive: 3.65%; that for `O=C(OC1CN2CCC1CC2)c1ccc([N+](=O)[O-])cc1` (stereo not drawn), inactive: -1.21%.
For the compound `CCOP(C)(=S)SCC(=O)NC(C)(CC)C(=O)O` (stereo not drawn), the inhibition was inactive: 8.9%.
The result for `CP(=O)(Nc1ccc(SC(F)(F)F)cc1)Oc1ccc(F)cc1` (stereo not drawn) reads inactive: -11.4%.
With `Cc1ccccc1NP(C)(=O)Nc1ccccc1C` the figure was inactive: 0.75%; with `CP(=O)(Nc1ccc2c(c1)OCCO2)Oc1ccccc1` (stereo not drawn), inactive: -0.27%.
The result for `COc1ccc(NP(C)(=O)Oc2ccccc2OC)cc1` (stereo not drawn) reads inactive: -3.74%; that for `CN(C)CCOC(=O)C(O)(c1ccccc1)C1CCCCC1` (stereo not drawn), inactive: -8.96%; that for `COc1ccc(OP(C)(=O)Nc2cccc(Br)c2)cc1` (stereo not drawn), inactive: -3.16%.
On to `Cc1cc(-c2cccc3ccccc23)c(C)cn1.O=[N+]([O-])c1cc([N+](=O)[O-])c(O)c([N+](=O)[O-])c1`, for which the inhibition was inactive: 2.38%.
The result for `O=[N+]([O-])c1cc([N+](=O)[O-])c(NCC2CCS(=O)(=O)C2)c([N+](=O)[O-])c1` (stereo not drawn) reads inactive: 8.72%; that for `O=[N+]([O-])c1ccc(OP2(=O)COCCO2)cc1` (stereo not drawn), inactive: 0.21%.
As for `O=[N+]([O-])c1cc([N+](=O)[O-])c(Nc2nnnn2CCO)c([N+](=O)[O-])c1`, the inhibition is inactive: 1.75%.
`CCOC(=O)C(CC)C1=NC(C)(C)Cc2ccccc21.O=[N+]([O-])c1cc([N+](=O)[O-])c(O)c([N+](=O)[O-])c1` (stereo not drawn): the inhibition is inactive: 2.19%.
The result for `CP(=O)(Nc1ccc(SC(F)(F)F)cc1)Oc1ccccc1` (stereo not drawn) reads inactive: -1.57%.
The result for `CCCOc1ccc(NP(C)(=O)Oc2ccc(Cl)cc2)cc1` (stereo not drawn) reads inactive: 0.09%.
As for `CN1CCCCC1COC(=O)C1(O)c2ccccc2CCc2ccccc21` (stereo not drawn), the inhibition is inactive: -4.24%.
With `COc1ccccc1OP(C)(=O)Nc1c(C)cccc1C` (stereo not drawn) the figure was inactive: 0.5%; with `O=[N+]([O-])c1cc([N+](=O)[O-])c(-n2nnc3ccccc32)c([N+](=O)[O-])c1`, inactive: 9.53%; with `Cc1nc2ccc3ccccc3c2s1.O=[N+]([O-])c1cc([N+](=O)[O-])c(O)c([N+](=O)[O-])c1`, inactive: 11.2%.
The result for `Cc1cc(C)cc(OP(C)(=O)Nc2ccc(C)cc2C)c1` (stereo not drawn) reads inactive: -3.12%; that for `CCOC(=O)c1ccc(NP(C)(=O)Oc2cc(C)cc(C)c2)cc1` (stereo not drawn), inactive: -12.3%; that for `COc1ccccc1OP(C)(=O)Nc1cccc(Br)c1` (stereo not drawn), inactive: 8.46%.
As for `CP(=O)(Nc1cccc(Br)c1)Oc1ccccc1` (stereo not drawn), the inhibition is inactive: 0.12%.
On to `Cc1cc(C)cc(OP(C)(=O)Nc2ccccn2)c1` (stereo not drawn), for which the inhibition is inactive: -0.84%.
On to `Cc1ccc(C)c(NP(C)(=O)Oc2ccccc2)c1` (stereo not drawn), for which the inhibition is inactive: 2.43%.
For `O=C(O)c1cccc(Nc2c([N+](=O)[O-])cc([N+](=O)[O-])cc2[N+](=O)[O-])c1`, the inhibition is inactive: -0.55%.
The result for `CC1=NCCc2c1[nH]c1ccccc21.O=[N+]([O-])c1cc([N+](=O)[O-])c(O)c([N+](=O)[O-])c1` reads inactive: 9.31%.
With `CC(C)(C)c1ccc(OP(C)(=O)Nc2ccc(SC(F)(F)F)cc2)cc1` (stereo not drawn) the figure was inactive: 3.89%; with `Cc1cccc(C)c1OP(C)(N)=O` (stereo not drawn), inactive: 0.26%.
As for `O=[N+]([O-])c1ccc2c(c1)C=Nc1ccccc1O2`, the inhibition was inactive: 5.07%.
As to `COc1ccccc1OP(C)(=O)Nc1cc(Cl)ccc1C` (stereo not drawn), the inhibition was inactive: -10.5%.
Regarding `COc1ccc(OP(C)(=O)Nc2cccc(F)c2)cc1` (stereo not drawn), the inhibition is inactive: 0.6%.
The result for `Cc1cc(C)cc(OP(C)(N)=O)c1` (stereo not drawn) reads inactive: -2.98%.
For the compound `CCOC(=O)c1ccc(NP(C)(=O)Oc2ccccc2)cc1` (stereo not drawn), the inhibition was inactive: -1.7%.
The result for `COc1ccccc1OP(C)(=O)Nc1ccc(C)cc1` (stereo not drawn) reads inactive: -2.99%.
The result for `Cc1ccc(NP(C)(=O)Oc2ccccc2)c(C)c1` (stereo not drawn) reads inactive: -1.39%; that for `CCN(CC)CCCOC(=O)C(O)(c1ccccc1)c1ccccc1`, inactive: 1.76%; that for `CCc1ccc(OP(C)(=O)N2CCN(c3ccc([N+](=O)[O-])cc3)CC2)cc1` (stereo not drawn), inactive: -7.36%.
On to `CP(=O)(NC(=O)Nc1ccccc1)Oc1ccccc1` (stereo not drawn), for which the inhibition was inactive: 2.02%.
With `Cc1cc(C)cc(OP(C)(=O)Nc2ccc(SC(F)(F)F)cc2)c1` (stereo not drawn) the figure was inactive: -3.02%; with `CP(=O)(Nc1ccc(SC(F)(F)F)cc1)Oc1ccc(Cl)cc1` (stereo not drawn), inactive: 1.81%.
Turning to `Cc1cccc(C)c1OP(C)(=O)Nc1ccc(SC(F)(F)F)cc1` (stereo not drawn), the inhibition was inactive: -0.06%.
The result for `CP(=O)(Oc1ccccc1)OC(c1ccccc1)C(F)(F)F` (stereo not drawn) reads inactive: 0.42%.
Turning to `CP(=O)(Nc1ccccn1)Oc1ccc(Cl)cc1` (stereo not drawn), the inhibition is inactive: -1.71%.
On to `CCOP(C)(=S)SCC(=O)NC(C)C(=O)O` (stereo not drawn), for which the inhibition was inactive: -10.7%.
Consider `CCOC(=O)c1ccc(NP(C)(=O)Oc2ccc(OC)cc2)cc1` (stereo not drawn), for which the inhibition was inactive: 1.21%.
As for `COc1ccccc1OP(C)(=O)Nc1ccccc1` (stereo not drawn), the inhibition is inactive: -3.87%.
Turning to `CP(=O)(Nc1ccccc1Br)Oc1ccccc1` (stereo not drawn), the inhibition was inactive: 4.46%.
With `CP(=S)(Nn1cnnc1)Oc1ccccc1` (stereo not drawn) the figure was active: 40.9%.

Values taken from PubChem BioAssay AID1822 (The Scripps Research Institute Molecular Screening Center, 2009).
